{"source": "paper PMC6268855", "about": "“New Trifluoromethyl Triazolopyrimidines as Anti-Plasmodiumfalciparum Agents” (Molecules, 2012)", "data": [{"tested_on": "human hepatoma cell line (HepG2)", "type": "cell-based", "settings": "selectivity index: ratio of MLD50 (HepG2) to IC50 (P. falciparum W2)", "procedure": "For in vitro cytotoxicity experiments, the cell monolayer was trypsinized, washed with culture medium, distributed in a flat-bottomed 96-well plate (5 × 10^3 cells/well), and finally incubated for 18 h at 37 °C for cell adherence.\nFor cytotoxicity testing, we used the (3-(4,5-dimethylthiazol-2-yl)-2,5-diphenyltetrazolium bromide (MTT) assay, performed as described in the literature. The HepG2 cell line was incubated with 20 µL of the compounds in different concentrations (200–25 µg/mL) for 24 h in an atmosphere of 5% CO2 at 37 °C.\nFor the MTT assay, which evaluates mitochondrial viability, 20 µL of MTT solution (5 mg/mL) was added, and the plates were incubated for an additional 3 h. After incubation, the supernatant was carefully removed from the wells, followed by addition of 100 µL DMSO with thorough mixing. Optical densities at 570 and 630 nm (background) were determined by an ELISA reader.\nCell viability was expressed as the percentage of control absorbance obtained in untreated cells after subtracting the absorbance from appropriate background. Lastly, the minimum lethal dose for 50% of the cells (MLD50) was determined as previously described in the literature. The ratio between MLD50 and drug activity (IC50) in vitro was used to determine the selectivity index (SI).", "values": [{"smiles": "Cc1cc(Nc2cc(Cl)cc(Cl)c2)n2nc(C(F)(F)F)nc2n1", "note": "[Compound 13, 7-(3,5-Dichlorophenylamine)-5-methyl-2-(trifluoromethyl)[1,2,4]triazolo[1,5-a]pyrimidine]", "SI MDL50/IC50": 218}, {"smiles": "Cc1cc(Nc2ccc(Cl)cc2Cl)n2nc(C(F)(F)F)nc2n1", "note": "[Compound 9, 7-(2,4-Dichlorophenylamine)-5-methyl-2-(trifluoromethyl)[1,2,4]triazolo[1,5-a]pyrimidine]", "SI MDL50/IC50": 118}, {"smiles": "COc1ccc(Nc2cc(C)nc3nc(C(F)(F)F)nn23)cc1", "note": "[Compound 11, 7-(4-Methoxyphenylamine)-5-methyl-2-(trifluoromethyl)[1,2,4]triazolo[1,5-a]pyrimidine]", "SI MDL50/IC50": ">1,547"}, {"smiles": "Cc1cc(Nc2cccc3ccccc23)n2nc(C(F)(F)F)nc2n1", "note": "[Compound 4, 5-Methyl-7-(naphthalen-1-ylamine)-2-(trifluoromethyl)[1,2,4]triazolo[1,5-a]pyrimidine]", "SI MDL50/IC50": 148}, {"smiles": "Cc1cc(Nc2cccc(Cl)c2)n2nc(C(F)(F)F)nc2n1", "note": "[Compound 7, 7-(3-Chlorophenylamine)-5-methyl-2-(trifluoromethyl)[1,2,4]triazolo[1,5-a]pyrimidine]", "SI MDL50/IC50": 203}, {"smiles": "COc1cc(Nc2cc(C)nc3nc(C)nn23)cc(OC)c1", "note": "[Compound 14, 7-(3,5-Dimethoxyphenylamine)-2,5-dimethyl[1,2,4]triazolo[1,5-a]pyrimidine]", "SI MDL50/IC50": 134}, {"smiles": "Cc1cc(-n2cccn2)n2nc(C(F)(F)F)nc2n1", "note": "[Compound 24, 5-Methyl-7-(1H-pyrazol-1-yl)-2-(trifluoromethyl)[1,2,4]triazolo[1,5-a]pyrimidine]", "SI MDL50/IC50": ">355"}, {"smiles": "Cc1cc(Nc2ccccc2)n2nc(C(F)(F)F)nc2n1", "note": "[Compound 6, 5-Methyl-7-phenylamine-2-(trifluoromethyl)[1,2,4]triazolo[1,5-a]pyrimidine]", "SI MDL50/IC50": ">227"}]}]}
